Laboratory results reported in the supplement of paper PMC9931576.
Human monoclonal antibodies against the spike receptor-binding domain (heavy:light variable regions). IC50 against pseudoviruses bearing the spike of naturally observed variants; lower = stronger; >10 µg/ml means not reached at the top dose. No active / inactive call. The stated detection limit is 0.0005 µg/ml; values near or below 0.001 µg/ml lie at the floor of the assay.

B1: BD56-344 (protein)
chain 1: QVNLLQSGTEVKKPGSSMRVTCKTSGGTTYAISWVRQAPGQGLEWMGRVIPLLGRKNYAEKFQDRVTISADNSAGTAFMVLGSLKPDDTGVYYCVRNEGDSSGVSPMPIIWGQGTKVIVSP
chain 2: FVLTQPSSVSVSPRQTATITCSGDALKKQYVYWHQQKPGQAPVLVISEDTKRPSGIPARFSGSTSGTVVTLTITAVQSEDEADYYCQSADTDATWVFGGGTRLTVL
B2: BD56-236 (protein)
chain 1: EVQLVQSGAEVKKPGESLKISCEASGYTFTNFWIAWVRQMPGKGLEWMGFIYPGDSDTRYSPSFQGQVTISADKSISTAYLQWSSLKASDTAMYYCARSDYFYDMDVWGQGTTVTVSS
chain 2: DIVMTQTPLSLSVTPGQPASISCKSSQSLLQSDGNTYLYWFLQKPGQSPQLLIYEVSSRFSGVPDRFSGSGSGTDFTLKISRVEAEDVGVYYCMQGIHLPPTFGQGTKVEIK
B3: BD56-804 (protein)
chain 1: EVQLVESGGGLIQPGGSLRLSCAASGLTVSSNYMSWVRQAPGKGLEWVSVMYSGGSTFYADSVKGRFTISRDNSNNTLYLEMNSLRAEDTAVYYCARIAVAHDAFDIWGQGTMVTVSS
chain 2: QSVLTQPPSVSAAPGQKVTISCSGSSSNIGNNYVSWYQQLPGTAPKLLIYDNNKRPSGIPDRFSGSQSGTSATLGITGLQTGDAADYYCGTWDSSLSAGVFGGGTQLTVL
B4: BD56-817 (protein)
chain 1: EVQLLESGGGLVQPGGSLRLSCAASGFTFSNYAMSWVRQAPGKGLEWVSAISGTGGSTYYADSVKGRFTISRDNSKNTLSLQMNSLKAEDTAVYYCASPGAGGAFDIWGQGTKVTVSS
chain 2: DIQMTQSPSTLSASVGDGVTITCRASQSISTWLAWYQQKPGKAPKLLIYQASSLESGVPSRFSGSGSGTEFTLTISSLQPDDFATYYCQQYNSYSPWTFGPGTKVEIK
B5: BD56-353 (protein)
chain 1: QVQLVQSGAEVKKPGSSVQVSCKASGGTFSSYAISWVRQAPGQGLEWMGGIIPMFRTAIYAQMFQGRVTITADESTGTAYMELSSLRSEDTALYYCARDSSPRGSRGGIEYFQHWGQGTLVTVSS
chain 2: DIQMTQSPSSLSASVGDRVTITCQASQDISNYLNWYQQKPGKAPKLLIYDASNLETGVPSRFSGSGSGTDFTFTISSLQPEDIATYYCQQYDDLLTFGQGTKLQIK
B6: BD56-797 (protein)
chain 1: QVQLVESGGGVVQPGRSLRLSCAASEFTFSSFAMHWVRQAPGKGLEWVALISYDGSNKYYADSVKGRFTISRDNSKNTLDLQMNSLRAEDMAVYYCARDRWGSSSSLGCFDLWGRGTLVTVSS
chain 2: DIQMTQSPSSLSASVGDRVTITCQASQDIGNYLNWYQQKPGKAPKLLIYDASNLETGVPSRFSGSGSGTDFTFTISSLQPEDIATYYCQQFDNGFALTFGGGTKVEIK
B7: BD56-789 (protein)
chain 1: QVQLVQSGAEVKKPGSSVKVSCKASGGTFSSYAITWVRQAPGQGLEWMGRIIPILDITKYAQKFQGRVTITADKSTSTAYMELSSLRSEDTAVYYCTRREEIDDYWGQGTLVTVSS
chain 2: SYELTQPPSVSVSPGQTASITCSGDKLGDKYAHWYQQKPGQSPVLVIYEDNKRPSGIPERFSGSNSGNTATLTISGTQAMDEADYYCQAWDSSTEVFGTGTKVTVL
B8: BD56-799 (protein)
chain 1: QVQLQESGPGLVKPSETLSLTCTVSGDSVSGYYWSWIRQPPRKGLEWIGFLYYSGSTDYNPSLKSRVTISLDTSKNQFSLMLRSVTAADTAVYYCVRGGDHGDYFDYWGQGTLVTVSS
chain 2: DIVMTQSPDSLAVSLGERATINCKSSQSVLYSSNNKNYLAWYQQKPGEPPKLLIYWASTRESGVPDRFSGSGSGTDFTLTISSLQAEDVALYYCQQYHSTPLTFGGGTKVEIK
B9: BD56-785 (protein)
chain 1: QLQLQESGPGLVKPSETLSLTCAVSGGSVSGGDNYYWGWIRQPPGKGLEWIGTIYYSGSTYYNPSLRSRVTISVDTSKNQFSLKLSSVTAADTAVYYCARINRGDFDYWGQGTLVTVSS
chain 2: DIQMTQSPSSLSASVGDRVTITCQASQDIINYLNWYQQKPGKAPKLLIYDASNLETGVPSRFSGSGSGTDFTFTISSLQPEDIATYYCQQYDNLALTFGGGTKVEIK
B10: BD56-351 (protein)
chain 1: QVTLRESGPALVKPTQTLTLTCTFSGFSLSTSGMCVSWIRQPPGKALEWLALIDWDDDKYYSTSLKTRLTISKDTSKNQVVLTMTDMDPVDTATYYCARMGAGSREYAMDVWGQGTTVTVSS
chain 2: SYELTQPPSVSVSPGQTARITCSGDALPIQYAYWYQQKPGQAPVLVIYKDNERPSGIPERFSGSSSGTTVTLTISAVQAEDEADYYCQSADSSGTYPVVFGGGTKLTVL

Target: SARS-CoV-2 Omicron BA.1 spike pseudovirus
Assay: pseudovirus neutralization IC50; higher = weaker neutralization
Protocol: (§1)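 Single-round VSV luciferase pseudovirus mixed with antibody dilutions for 1 h and put on Huh-7 cells for about a day; IC50 from the dose curve.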

Going from B1 to B2, the “pseudovirus neutralization IC50” value falls from 0.0125 µg/mL to 0.000842 µg/mL (15-fold).

First: B3
Second: B4
The “pseudovirus neutralization IC50” value of the first is 1.6-fold higher: 0.0117 µg/mL for the first, 0.00748 µg/mL for the second.

First: B5
Second: B6
The “pseudovirus neutralization IC50” value of the first is 5.7-fold lower: 0.000254 µg/mL for the first, 0.00145 µg/mL for the second.

B7 and B8 are within 1.5-fold of each other in “pseudovirus neutralization IC50” value: 0.00102 µg/mL for the first, 0.000826 µg/mL for the second.

Compared with B9, B10 is 17-fold higher in “pseudovirus neutralization IC50” value: 0.000981 µg/mL for the first, 0.0163 µg/mL for the second.

Target: SARS-CoV-2 Omicron BA.2 spike pseudovirus
Assay: as above
Protocol: as §1

Compared with B1, B2 is 71-fold lower in “pseudovirus neutralization IC50” value: 0.189 µg/mL for the first, 0.00265 µg/mL for the second.

First: B3
Second: B4
The “pseudovirus neutralization IC50” value of the first is higher: greater than 10 µg/mL for the first, 0.0318 µg/mL for the second.

First: B5
Second: B6
The “pseudovirus neutralization IC50” value of the first is 15-fold lower: 0.000183 µg/mL for the first, 0.0028 µg/mL for the second.

Going from B7 to B8, the “pseudovirus neutralization IC50” value rises from 0.000704 µg/mL to greater than 10 µg/mL.

First: B9
Second: B10
The “pseudovirus neutralization IC50” value of the first is 1300-fold lower: 0.000741 µg/mL for the first, 0.965 µg/mL for the second.

Target: SARS-CoV-2 Omicron BA.2.75 spike pseudovirus
Assay: as above
Protocol: as §1

Going from B1 to B2, the “pseudovirus neutralization IC50” value falls from 0.0797 µg/mL to 0.0174 µg/mL (4.6-fold).

B3 and B4 cannot be ordered by “pseudovirus neutralization IC50” value: greater than 10 µg/mL for the first, greater than 10 µg/mL for the second.

First: B5
Second: B6
The “pseudovirus neutralization IC50” value of the first is lower: 0.000586 µg/mL for the first, greater than 10 µg/mL for the second.

Going from B7 to B8, the “pseudovirus neutralization IC50” value rises from 0.00129 µg/mL to greater than 10 µg/mL.

Compared with B9, B10 is lower in “pseudovirus neutralization IC50” value: greater than 10 µg/mL for the first, 0.644 µg/mL for the second.

Target: SARS-CoV-2 Omicron BA.2.75.2 spike pseudovirus
Assay: as above
Protocol: as §1

Compared with B1, B2 is 61-fold lower in “pseudovirus neutralization IC50” value: 1.1 µg/mL for the first, 0.018 µg/mL for the second.

B3 and B4 cannot be ordered by “pseudovirus neutralization IC50” value: greater than 10 µg/mL for the first, greater than 10 µg/mL for the second.

Compared with B5, B6 is higher in “pseudovirus neutralization IC50” value: 0.239 µg/mL for the first, greater than 10 µg/mL for the second.

B7 and B8 cannot be ordered by “pseudovirus neutralization IC50” value: greater than 10 µg/mL for the first, greater than 10 µg/mL for the second.

Compared with B9, B10 is lower in “pseudovirus neutralization IC50” value: greater than 10 µg/mL for the first, 0.615 µg/mL for the second.

Target: SARS-CoV-2 Omicron BA.5 spike pseudovirus
Assay: as above
Protocol: as §1

Compared with B1, B2 is lower in “pseudovirus neutralization IC50” value: greater than 10 µg/mL for the first, 0.00349 µg/mL for the second.

B3 and B4 cannot be ordered by “pseudovirus neutralization IC50” value: greater than 10 µg/mL for the first, greater than 10 µg/mL for the second.

First: B5
Second: B6
The “pseudovirus neutralization IC50” value of the first is 5.1-fold lower: 0.266 µg/mL for the first, 1.35 µg/mL for the second.

B7 and B8 cannot be ordered by “pseudovirus neutralization IC50” value: greater than 10 µg/mL for the first, greater than 10 µg/mL for the second.

Compared with B9, B10 is lower in “pseudovirus neutralization IC50” value: greater than 10 µg/mL for the first, 1.87 µg/mL for the second.

Target: SARS-CoV-2 Omicron BM.1.1.1 spike pseudovirus
Assay: as above
Protocol: as §1

First: B1
Second: B2
The “pseudovirus neutralization IC50” value of the first is higher: greater than 10 µg/mL for the first, 0.0217 µg/mL for the second.

B3 and B4 cannot be ordered by “pseudovirus neutralization IC50” value: greater than 10 µg/mL for the first, greater than 10 µg/mL for the second.

Compared with B5, B6 is higher in “pseudovirus neutralization IC50” value: 4.13 µg/mL for the first, greater than 10 µg/mL for the second.

B7 and B8 cannot be ordered by “pseudovirus neutralization IC50” value: greater than 10 µg/mL for the first, greater than 10 µg/mL for the second.

Going from B9 to B10, the “pseudovirus neutralization IC50” value falls from greater than 10 µg/mL to 0.433 µg/mL.

Target: SARS-CoV-2 Omicron BQ.1.1 spike pseudovirus
Assay: as above
Protocol: as §1

Compared with B1, B2 is lower in “pseudovirus neutralization IC50” value: greater than 10 µg/mL for the first, 7.8 µg/mL for the second.

B3 and B4 cannot be ordered by “pseudovirus neutralization IC50” value: greater than 10 µg/mL for the first, greater than 10 µg/mL for the second.

First: B5
Second: B6
The “pseudovirus neutralization IC50” value of the first is lower: 6.2 µg/mL for the first, greater than 10 µg/mL for the second.

B7 and B8 cannot be ordered by “pseudovirus neutralization IC50” value: greater than 10 µg/mL for the first, greater than 10 µg/mL for the second.

B9 and B10 cannot be ordered by “pseudovirus neutralization IC50” value: greater than 10 µg/mL for the first, greater than 10 µg/mL for the second.

Target: SARS-CoV-2 Omicron BR.2 spike pseudovirus
Assay: as above
Protocol: as §1

First: B1
Second: B2
The “pseudovirus neutralization IC50” value of the first is higher: greater than 10 µg/mL for the first, 0.0298 µg/mL for the second.

B3 and B4 cannot be ordered by “pseudovirus neutralization IC50” value: greater than 10 µg/mL for the first, greater than 10 µg/mL for the second.

Compared with B5, B6 is higher in “pseudovirus neutralization IC50” value: 0.0024 µg/mL for the first, greater than 10 µg/mL for the second.

B7 and B8 cannot be ordered by “pseudovirus neutralization IC50” value: greater than 10 µg/mL for the first, greater than 10 µg/mL for the second.

Compared with B9, B10 is lower in “pseudovirus neutralization IC50” value: greater than 10 µg/mL for the first, 0.618 µg/mL for the second.

Target: SARS-CoV-2 Omicron CA.1 spike pseudovirus
Assay: as above
Protocol: as §1

Going from B1 to B2, the “pseudovirus neutralization IC50” value falls from greater than 10 µg/mL to 0.0157 µg/mL.

B3 and B4 cannot be ordered by “pseudovirus neutralization IC50” value: greater than 10 µg/mL for the first, greater than 10 µg/mL for the second.

Compared with B5, B6 is higher in “pseudovirus neutralization IC50” value: 0.28 µg/mL for the first, greater than 10 µg/mL for the second.

B7 and B8 cannot be ordered by “pseudovirus neutralization IC50” value: greater than 10 µg/mL for the first, greater than 10 µg/mL for the second.

Compared with B9, B10 is lower in “pseudovirus neutralization IC50” value: greater than 10 µg/mL for the first, 0.875 µg/mL for the second.

Target: SARS-CoV-2 Omicron XBB spike pseudovirus
Assay: as above
Protocol: as §1

B1 and B2 cannot be ordered by “pseudovirus neutralization IC50” value: greater than 10 µg/mL for the first, greater than 10 µg/mL for the second.

B3 and B4 cannot be ordered by “pseudovirus neutralization IC50” value: greater than 10 µg/mL for the first, greater than 10 µg/mL for the second.

Compared with B5, B6 is higher in “pseudovirus neutralization IC50” value: 3.32 µg/mL for the first, greater than 10 µg/mL for the second.

B7 and B8 cannot be ordered by “pseudovirus neutralization IC50” value: greater than 10 µg/mL for the first, greater than 10 µg/mL for the second.

B9 and B10 cannot be ordered by “pseudovirus neutralization IC50” value: greater than 10 µg/mL for the first, greater than 10 µg/mL for the second.

Target: SARS-CoV-2 early D614G spike pseudovirus
Assay: as above
Protocol: as §1

B1 and B2 cannot be ordered by “pseudovirus neutralization IC50” value: greater than 10 µg/mL for the first, greater than 10 µg/mL for the second.

B3 and B4 cannot be ordered by “pseudovirus neutralization IC50” value: greater than 10 µg/mL for the first, greater than 10 µg/mL for the second.

B5 and B6 cannot be ordered by “pseudovirus neutralization IC50” value: greater than 10 µg/mL for the first, greater than 10 µg/mL for the second.

B7 and B8 cannot be ordered by “pseudovirus neutralization IC50” value: greater than 10 µg/mL for the first, greater than 10 µg/mL for the second.

B9 and B10 cannot be ordered by “pseudovirus neutralization IC50” value: greater than 10 µg/mL for the first, greater than 10 µg/mL for the second.
